Test results as given in publication PMC7049619 (Acta Pharmaceutica Sinica. B, 2019).

Test: Cytotoxicity in C8166 cells by MTT method
Settings: human, mean ± SD (n = 3), Table 1
In the case of `CCc1c(CC2CCCCC2)nc(SCc2n[nH]c(-c3ccc(F)cc3)c2Cl)[nH]c1=O` [I-31, 2-(((4-Chloro-5-(4-fluorophenyl)-1H-pyrazol-3-yl)methyl)thio)-6-(cyclohexylmethyl)-5-ethyl-pyrimidin-4(3H)-one], the CC50 at 3 days is reported as 64.9 ± 14.6 µM. `O=c1cc(CC2CCCCC2)nc(SCc2cc(-c3ccc(F)cc3)[nH]n2)[nH]1` [I-40, 6-(Cyclohexylmethyl)-2-(((5-(4-fluorophenyl)-1H-pyrazol-3-yl)methyl)thio)pyrimidin-4(3H)-one] gave a CC50 at 3 days of 61.6 ± 3.22 µM. For `CCc1c(CC2CCCCC2)nc(SCc2cc(C(C)(C)C)[nH]n2)[nH]c1=O` [I-22, 2-(((5-(tert-Butyl)-1H-pyrazol-3-yl)methyl)thio)-6-(cyclohexylmethyl)-5-ethyl-pyrimidin-4(3H)-one], the CC50 at 3 days was 67.9 ± 4.76 µM. In the case of `CCc1c(CC2CCCCC2)nc(SCc2cc[nH]n2)[nH]c1=O` [I-19, 2-(((1H-Pyrazol-3-yl)methyl)thio)-6-(cyclohexyl-methyl)-5-ethylpyrimidin-4(3H)-one], the CC50 at 3 days is reported as 75 ± 6.88 µM. `CCc1c(CC2CCCCC2)nc(SCc2n[nH]c(-c3cccc(Br)c3)c2Cl)[nH]c1=O` [I-25, 2-(((5-(3-Bromophenyl)-4-chloro-1H-pyrazol-3-yl)methyl)thio)-6-(cyclohexylmethyl)-5-ethyl-pyrimidin-4(3H)-one] gave a CC50 at 3 days of 58.1 ± 9.84 µM. In the case of `CCc1c(CC2CCCCC2)nc(SCc2cc(-c3cccc(C(F)(F)F)c3)[nH]n2)[nH]c1=O` [I-06, 6-(Cyclohexylmethyl)-5-ethyl-2-(((5-(3-(trifluoromethyl)phenyl)-1H-pyrazol-3-yl)methyl)thio)pyrimidin-4(3H)-one], the CC50 at 3 days is reported as 34.4 ± 3.5 µM. Compound `CCc1c(CC2CCCCC2)nc(SCc2n[nH]c(-c3cccc(Cl)c3)c2Cl)[nH]c1=O` [I-26, 2-(((4-Chloro-5-(3-chlorophenyl)-1H-pyrazol-3-yl)methyl)thio)-6-(cyclohexylmethyl)-5-ethyl-pyrimidin-4(3H)-one] has a CC50 at 3 days of 66.1 ± 31.4 µM. `CCc1c(CC2CCCCC2)nc(SCc2n[nH]c(-c3ccc(OC)c(Cl)c3)c2Cl)[nH]c1=O` [I-34, 2-(((4-Chloro-5-(3-chloro-4-methoxyphenyl)-1H-pyrazol-3-yl)methyl)thio)-6-(cyclohexylmethyl)-5-ethyl-pyrimidin-4(3H)-one] gave a CC50 at 3 days of 49.8 ± 8.21 µM. Compound `CCc1c(CC2CCCCC2)nc(SCc2cc(C)[nH]n2)[nH]c1=O` [I-20, 6-(Cyclohexylmethyl)-5-ethyl-2-(((5-methyl-1H-pyrazol-3-yl)methyl)thio)pyrimidin-4(3H)-one] has a CC50 at 3 days of 45.2 ± 10.7 µM. Work on `CCc1c(CC2CCCCC2)nc(SCc2cc(C3CC3)[nH]n2)[nH]c1=O` [I-21, 6-(Cyclohexylmethyl)-2-(((5-cyclopropyl-1H-pyrazol-3-yl)methyl)thio)-5-ethyl-pyrimidin-4(3H)-one] yielded a CC50 at 3 days of 47.2 ± 4.89 µM. In the case of `CCc1c(CC2CCCCC2)nc(SCc2cc(-c3cccc(F)c3)[nH]n2)[nH]c1=O` [I-05, 6-(Cyclohexylmethyl)-5-ethyl-2-(((5-(3-fluorophenyl)-1H-pyrazol-3-yl)methyl)thio)pyrimidin-4(3H)-one], the CC50 at 3 days is reported as 72 ± 8.86 µM. In the case of `CCc1c(CC2CCCCC2)nc(SCc2cc(-c3ccc(Cl)c(Cl)c3)[nH]n2)[nH]c1=O` [I-14, 6-(Cyclohexylmethyl)-2-(((5-(3,4-dichlorophenyl)-1H-pyrazol-3-yl)methyl)thio)-5-ethyl-pyrimidin-4(3H)-one], the CC50 at 3 days is reported as 75.4 ± 8.48 µM. With `CCc1c(CC2CCCCC2)nc(SCc2cc(-c3cccc(Cl)c3)[nH]n2)[nH]c1=O` [I-04, 2-(((5-(3-Chlorophenyl)-1H-pyrazol-3-yl)methyl)thio)-6-(cyclohexylmethyl)-5-ethyl-pyrimidin-4(3H)-one] the CC50 at 3 days was 80.99 ± 0.38 µM. Compound `CCc1c(CC2CCCCC2)nc(SCc2n[nH]c(-c3ccc(F)c(F)c3)c2Cl)[nH]c1=O` [I-33, 2-(((4-Chloro-5-(3,4-difluorophenyl)-1H-pyrazol-3-yl)methyl)thio)-6-(cyclohexylmethyl)-5-ethyl-pyrimidin-4(3H)-one] has a CC50 at 3 days of 115 ± 19.1 µM. For `CCc1c(CC2CCCCC2)nc(SCc2cc(-c3ccccc3)[nH]n2)[nH]c1=O` [I-01, 6-(Cyclohexylmethyl)-5-ethyl-2-(((5-phenyl-1H-pyrazol-3-yl)methyl)thio)pyrimidin-4(3H)-one], the CC50 at 3 days was 84.5 ± 0.91 µM. For `COc1ccc(-c2cc(CSc3nc(CC4CCCCC4)c(C)c(=O)[nH]3)n[nH]2)cc1` [I-36, 6-(Cyclohexylmethyl)-2-(((5-(4-methoxyphenyl)-1H-pyrazol-3-yl)methyl)thio)-5-methyl-pyrimidin-4(3H)-one], the CC50 at 3 days was 66.9 ± 0.86 µM. With `CCc1c(CC2CCCCC2)nc(SCc2cc(-c3ccc(Cl)cc3)[nH]n2)[nH]c1=O` [I-08, 2-(((5-(4-Chlorophenyl)-1H-pyrazol-3-yl)methyl)thio)-6-(cyclohexylmethyl)-5-ethyl-pyrimidin-4(3H)-one] the CC50 at 3 days was 83.86 ± 0.45 µM. `CCc1c(CC2CCCCC2)nc(SCc2n[nH]c(-c3cccc(C(F)(F)F)c3)c2Cl)[nH]c1=O` [I-28, 2-(((4-Chloro-5-(3-(trifluoromethyl)phenyl)-1H-pyrazol-3-yl)methyl)thio)-6-(cyclohexyl-methyl)-5-ethyl-pyrimidin-4(3H)-one] showed a CC50 at 3 days of 55.1 ± 3.82 µM. `CCc1c(CC2CCCCC2)nc(SCc2cc(-c3ccccn3)[nH]n2)[nH]c1=O` [I-18, 6-(Cyclohexylmethyl)-5-ethyl-2-(((5-(pyridin-2-yl)-1H-pyrazol-3-yl)methyl)thio)pyrimidin-4(3H)-one] gave a CC50 at 3 days of 79.4 ± 5.18 µM. With `CCc1c(CC2CCCCC2)nc(SCc2cc(-c3ccc(F)c(F)c3)[nH]n2)[nH]c1=O` [I-15, 6-(Cyclohexylmethyl)-2-(((5-(3,4-difluorophenyl)-1H-pyrazol-3-yl)methyl)thio)-5-ethyl-pyrimidin-4(3H)-one] the CC50 at 3 days was 86.4 ± 3.1 µM. `CCc1c(CC2CCCCC2)nc(SCc2cc(-c3ccc(F)cc3F)[nH]n2)[nH]c1=O` [I-17, 6-(Cyclohexylmethyl)-2-(((5-(2,4-difluorophenyl)-1H-pyrazol-3-yl)methyl)thio)-5-ethyl-pyrimidin-4(3H)-one] gave a CC50 at 3 days of 59.7 ± 8.78 µM. With `Cc1c(CC2CCCCC2)nc(SCc2cc(-c3ccc(F)cc3)[nH]n2)[nH]c1=O` [I-37, 6-(Cyclohexylmethyl)-2-(((5-(4-fluorophenyl)-1H-pyrazol-3-yl)methyl)thio)-5-methyl-pyrimidin-4(3H)-one] the CC50 at 3 days was 42.2 ± 1.75 µM. `CCc1c(CC2CCCCC2)nc(SCc2cc(-c3ccc(C)cc3C)[nH]n2)[nH]c1=O` [I-16, 6-(Cyclohexylmethyl)-2-(((5-(2,4-dimethylphenyl)-1H-pyrazol-3-yl)methyl)thio)-5-ethyl-pyrimidin-4(3H)-one] showed a CC50 at 3 days of 87.4 ± 1.87 µM. In the case of `COc1ccc(-c2cc(CSc3nc(CC4CCCCC4)cc(=O)[nH]3)n[nH]2)cc1` [I-39, 6-(Cyclohexylmethyl)-2-(((5-(4-methoxyphenyl)-1H-pyrazol-3-yl)methyl)thio)pyrimidin-4(3H)-one], the CC50 at 3 days is reported as 56.1 ± 0.89 µM. Compound `CCc1c(CC2CCCCC2)nc(SCc2cc(-c3cccc(Br)c3)[nH]n2)[nH]c1=O` [I-03, 2-(((5-(3-Bromophenyl)-1H-pyrazol-3-yl)methyl)thio)-6-(cyclohexylmethyl)-5-ethyl-pyrimidin-4(3H)-one] has a CC50 at 3 days of 76.3 ± 3.09 µM. Compound `CCc1c(CC2CCCCC2)nc(SCc2n[nH]c(-c3cccc(C)c3)c2Cl)[nH]c1=O` [I-24, 2-(((4-Chloro-5-(m-tolyl)-1H-pyrazol-3-yl)methyl)thio)-6-(cyclohexylmethyl)-5-ethyl-pyrimidin-4(3H)-one] has a CC50 at 3 days of 77.1 ± 13.6 µM. `CCc1c(CC2CCCCC2)nc(SCc2cc(-c3ccc(F)cc3)[nH]n2)[nH]c1=O` [I-09, 6-(Cyclohexylmethyl)-5-ethyl-2-(((5-(4-fluorophenyl)-1H-pyrazol-3-yl)methyl)thio)pyrimidin-4(3H)-one] showed a CC50 at 3 days of 74.9 ± 4.82 µM.
